Anti-infective test results gathered from many reports (values: NIAID ChemDB through PubChem).

Shared fields: growth or infection tests; agent: Poliovirus; read-out: EC50

Lines come from different laboratories, so protocols vary.

structure | strain | cells | result
Nc1ncnc2c1ncn2[C@@H]1C[C@H](CO)[C@@H](O)C1 | TYPE 1 | HeLa | 100 µg/mL
C[C@H]1C[C@@H](n2cnc3c(N)ncnc32)[C@H](O)[C@@H]1O | TYPE 1 | HeLa | >200 µg/mL
OC[C@H]1O[C@@H](n2cnc3cc(Cl)c(Cl)cc32)[C@H](O)[C@H]1O | TYPE 1 | HeLa | >10 µg/mL
CCSc1nsc(-c2ccccc2)c1C#N | Brunhilde (type 1) | HEP-2 | 0.1 µg/mL
Nc1nccc2c1ncn2[C@@H]1O[C@H](CO)[C@@H](O)[C@H]1O | TYPE 1 | HeLa | ≥40 µg/mL
O[C@H]1[C@@H](O)COC(n2cnc3cc(Cl)c(Cl)cc32)[C@@H]1O | TYPE 1 | HeLa | >200 µg/mL
CCCC#Cc1c(C(N)=O)ncn1[C@@H]1O[C@H](CO)[C@@H](O)[C@H]1O | TYPE 1 | HeLa | >200 µg/mL
OCCOC([C@H](O)CO)n1cnc2cc(Cl)c(Cl)cc21 | TYPE 1 | HeLa | >200 µg/mL
Nc1nc(Cl)c2ncn(C[C@H]3CC[C@@H](CO)C3)c2n1 | TYPE 1 | HeLa | >10 µg/mL
Nc1ncnc2c1ccn2[C@@H]1O[C@H](CO)[C@@H](O)[C@H]1O | TYPE 1 | HeLa | 0.2 µg/mL
Cc1cn([C@H]2C[C@@H](CO)[C@H](O)C2)c(=O)[nH]c1=O | TYPE 1 | HeLa | 100 µg/mL
Nc1nc(N)c2nnn(C[C@H]3CC[C@@H](CO)C3)c2n1 | TYPE 1 | HeLa | >200 µg/mL
Nc1ccn([C@@H]2C[C@H](CO)[C@@H](O)[C@H]2O)c(=O)n1 | TYPE 1 | HeLa | >400 µg/mL
NC(=O)c1ncn([C@@H]2O[C@H](CO)[C@@H](O)[C@H]2O)c1C#CCO | TYPE 1 | HeLa | >400 µg/mL
CC(C)S(=O)(=O)n1c(N)nc2ccc(/C(=N/O)c3ccccc3)cc21 | Brunhilde (type 20) | BSC-1 | 0.02 µg/mL
Nc1ncnc2c1ccn2[C@@H]1C[C@H](CO)[C@@H](O)[C@H]1O | TYPE 1 | HeLa | ≥10 µg/mL
CCOC(=O)CSc1nsc(-c2ccccc2)c1C#N | Brunhilde (type 1) | HEP-2 | >200 µg/mL
Nc1nc(Cl)c2nnn(C[C@H]3CC[C@@H](CO)C3)c2n1 | TYPE 1 | HeLa | >200 µg/mL
Cc1cn([C@@H]2CC[C@H](CO)C2)c(=O)[nH]c1=O | TYPE 1 | HeLa | 400 µg/mL
CCCSc1nsc(-c2ccccc2)c1C(=O)O | Brunhilde (type 1) | HEP-2 | >500 µg/mL
Nc1ncnc2c1ncn2C[C@H](O)CO | TYPE 1 | HeLa | >400 µg/mL
CN(C)c1nsc(-c2ccccc2)c1C#N | Brunhilde (type 1) | HEP-2 | 0.2 µg/mL
NC(=O)c1ncn([C@@H]2O[C@H](CO)[C@@H](O)[C@H]2O)n1 | TYPE 1 | HeLa | >400 µg/mL
N#CCSc1nsc(-c2ccccc2)c1C#N | Brunhilde (type 1) | HEP-2 | 0.5 µg/mL
Nc1nccc2c1ncn2[C@@H]1O[C@H](CO)[C@@H](O)[C@H]1O | TYPE 1 | HeLa | ≥40 µg/mL
Nc1nc2c(ncn2C[C@H]2CC[C@@H](CO)C2)c(=O)[nH]1 | TYPE 1 | HeLa | >200 µg/mL
NC(=O)c1ncn([C@@H]2O[C@H](CO)[C@@H](O)[C@H]2O)c1C#CCCO | TYPE 1 | HeLa | >200 µg/mL
Nc1nccc2c1ncn2[C@@H]1C[C@H](CO)[C@@H](O)[C@H]1O | TYPE 1 | HeLa | >400 µg/mL
Nc1ncnc2c1ncn2[C@@H]1C=C(CO)[C@@H](O)[C@H]1O | TYPE 1 | HeLa | >10 µg/mL
Clc1cc2nc[nH]c2cc1Cl | TYPE 1 | HeLa | >10 µg/mL
Nc1ncnc2c1ncn2C[C@@H](O)[C@H](O)C(=O)O | TYPE 1 | HeLa | >400 µg/mL
CSc1nsc(-c2ccccc2)c1C(=O)O | Brunhilde (type 1) | HEP-2 | >500 µg/mL
Nc1ncnc2c1ncn2[C@@H]1C=C[C@@H](O)[C@H]1O | TYPE 1 | HeLa | >400 µg/mL
Cc1cn([C@@H]2C[C@H](CO)[C@H](O)C2)c(=O)[nH]c1=O | TYPE 1 | HeLa | 400 µg/mL

ECn is the concentration giving n% inhibition of infection, replication or growth.